PubChem BioAssay AID1224833 | University of Georgia – 2016

Test: 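Host factors restraining rotavirus as candidate antiviral genes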 (primary screen)
Cells: monkey MA104 kidney cells
Reagent: siRNA pool against human genes, 50 nM
Time to read-out: 48 h knock-down before infection; read 24 h after infection
Treatment: infection with rotavirus strain RV3 two days after transfection; infectious dose for this stage not given
Measurement: 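z-score of rotavirus antigen signal per well, from a fluorescent immunoassay, relative to non-targeting control wells on the same plate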
Direction: z-score vs non-targeting control: higher = more rotavirus replication than with non-targeting control
Active means: In these data the active calls have z-score vs non-targeting control at about -1 or lower, or at about 1 or higher
Calls: active = z-score beyond 1 either way; inactive = z-score within 1 of zero
The deposit covers about 12,000 reagents; this is a part drawn at random. Of all reagents, about 5,600 (46%) are marked active. 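Active calls cover z-scores past 1 in both directions, so they include lowered as well as raised rotavirus replication.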

no.	gene	PubChem SID	z-score vs non-targeting control	Call
1	CCN1	SID329574122	-1.55	active
2	CPSF4	SID329577412	-0.952	inactive
3	DDOST	SID329573380	-1.2	active
4	ARMC9	SID329581175	0.825	inactive
5	LRRC14	SID329576726	0.291	inactive
6	GBP4	SID329582267	2.26	active
7	CHP1	SID329577621	0.143	inactive
8	NXPH2	SID329577614	1.13	active
9	PRIMA1	SID329582884	-0.127	inactive
10	PYM1	SID329581590	-1.74	active
11	FAAP100	SID329581185	-0.643	inactive
12	CHST7	SID329580037	-2.17	active
13	DHODH	SID329573401	-0.62	inactive
14	RTN4	SID329580179	0.0655	inactive
15	RCAN2	SID329577041	-0.396	inactive
16	KIFAP3	SID329577726	1.12	active
17	OR52A1	SID329578046	1.69	active
18	GIGYF1	SID329580650	0.52	inactive
19	FAM120B	SID329581635	0.194	inactive
20	INIP	SID329580415	-0.489	inactive
21	GALR1	SID329573713	-1.74	active
22	PGBD3	SID329583796	-0.807	inactive
23	IFNA2	SID329574096	-1.16	active
24	NKG7	SID329574635	-0.108	inactive
25	HOMEZ	SID329580312	0.421	inactive
26	STIMATE	SID329584254	1.54	active
27	AGGF1	SID329579571	0.102	inactive
28	ABR	SID329572661	-0.588	inactive
29	CANX	SID329573003	-0.153	inactive
30	ANGPTL4	SID329578927	1.79	active
31	UBAP2	SID329579894	-0.5	inactive
32	PHTF1	SID329577341	-1.55	active
33	MYNN	SID329579921	-0.173	inactive
34	AWAT1	SID329583164	-0.112	inactive
35	OR2T10	SID329582567	0.187	inactive
36	MX2	SID329574513	-0.932	inactive
37	LRRC43	SID329583695	-1.5	active
38	SOX3	SID329575439	-0.669	inactive
39	MMP16	SID329574466	-1.16	active
40	PGLYRP3	SID329582215	1.95	active
41	SDHB	SID329575282	-1.73	active
42	PIK3AP1	SID329582372	2.03	active
43	SLC35E4	SID329584057	-1.06	active
44	CCN6	SID329576314	-0.796	inactive
45	CYP4F12	SID329580781	0.545	inactive

13 entries already listed, sorted by “z-score vs non-targeting control”, descending.
gene	PubChem SID	z-score vs non-targeting control	Call
ANGPTL4	SID329578927	1.79	active
STIMATE	SID329584254	1.54	active
GIGYF1	SID329580650	0.52	inactive
HOMEZ	SID329580312	0.421	inactive
FAM120B	SID329581635	0.194	inactive
AGGF1	SID329579571	0.102	inactive
NKG7	SID329574635	-0.108	inactive
CANX	SID329573003	-0.153	inactive
INIP	SID329580415	-0.489	inactive
ABR	SID329572661	-0.588	inactive
PGBD3	SID329583796	-0.807	inactive
IFNA2	SID329574096	-1.16	active
GALR1	SID329573713	-1.74	active

More records follow:
no.	gene	PubChem SID	z-score vs non-targeting control	Call
46	CRYBG2	SID329579543	0.298	inactive
47	GCSAM	SID329583760	0.787	inactive
48	SYS1	SID329581931	-0.516	inactive
49	MCHR2	SID329581651	-0.579	inactive
50	TIGD5	SID329581788	-1.58	active
51	GREM1	SID329578420	-2.01	active
52	DLGAP2	SID329576489	-1.04	active
53	GHRL	SID329579191	-1.58	active
54	PCDHB6	SID329579980	-0.0598	inactive
55	MRPS22	SID329580103	-1.8	active
56	PCDH12	SID329579005	-1.14	active
57	SCGB3A1	SID329582062	-0.327	inactive
58	MORF4	SID329577433	-1.18	active
59	FAM81A	SID329582896	-1.48	active
60	UCHL5	SID329579045	1.19	active
61	TBCEL	SID329583530	0.712	inactive
62	ZNF346	SID329578068	1.68	active
63	SULT1A4	SID329584621	0.771	inactive
64	IHO1	SID329584060	1.5	active
65	FAM124B	SID329581036	1.05	active
66	RORB	SID329575141	-0.747	inactive
67	RGMA	SID329580114	-1.35	active
68	SLC1A1	SID329575335	-0.5	inactive
69	TNFSF9	SID329576271	-0.115	inactive
70	CEP112	SID329583421	-1.33	active
71	MESP1	SID329579924	-0.701	inactive
72	NKIRAS1	SID329578601	-0.837	inactive
73	TMEM174	SID329582710	0.593	inactive
74	FANCF	SID329573605	-0.91	inactive
75	ZNF432	SID329576716	-1.32	active
76	PLA2G15	SID329578111	0.621	inactive
77	CBLN4	SID329582806	1.31	active
78	TIMP1	SID329575644	-1.18	active
79	LINC02870	SID329583314	0.34	inactive
80	PDXDC1	SID329577780	-0.903	inactive
81	ATG12	SID329576446	-1.05	active
82	USP37	SID329580352	1.06	active
83	SPANXN5	SID329584644	0.572	inactive
84	HMGCS1	SID329573984	0.59	inactive
85	STAB1	SID329577843	-0.728	inactive
86	TRAPPC6B	SID329582442	-2.65	active
87	CCDC186	SID329579560	0.222	inactive
88	MRPL10	SID329582506	0.0805	inactive
89	KRT6B	SID329574239	0.313	inactive
90	VSTM2L	SID329582610	-0.65	inactive
91	TECPR2	SID329576859	-1.08	active
92	XPR1	SID329576481	1.63	active
93	PQBP1	SID329576954	0.81	inactive
94	RAB3B	SID329575041	-1.43	active
95	SHCBP1	SID329581015	-0.807	inactive
96	IL27RA	SID329576609	-1.24	active
97	IRF9	SID329577121	-1.45	active
98	MSTN	SID329573747	1.47	active
99	DMGDH	SID329578739	-1.9	active
100	PAN2	SID329576874	-0.964	inactive
101	IGF2	SID329574114	-2.24	active
102	SPESP1	SID329583668	-0.144	inactive
103	FOSL1	SID329575996	0.536	inactive
104	SNX3	SID329576257	-0.75	inactive
105	UTP25	SID329578473	-1.21	active
106	BCAS1	SID329576163	-0.0986	inactive
107	ZNF557	SID329580869	0.635	inactive
108	PARVG	SID329580563	-0.798	inactive
109	USH1G	SID329582492	-0.534	inactive
110	CCT6B	SID329577323	1.7	active
